These results are taken from PMC4727337, “A Fluorescent Oligothiophene-Bis-Triazine ligand interacts with PrP fibrils and detects SDS-resistant oligomers in human prion diseases” (2016).

Several values for one entry are separate records, joined by “and”; a condition that tells them apart may be missing. Equal values may be shown once.

The assay has as its target PrP^Sc of 22 L-infected mouse brain homogenate (mouse (endogenous in brain)) (UniProt P04925).

Consider “PrP^Sc of 22 L-infected mouse brain homogenate (from UniProt P04925 23-230)”, for which the stoichiometry N was 2 and 3.
